Pooled drug test results. Numbers come from NIAID ChemDB, via PubChem.

Shared fields: growth or infection tests; agent: HIV-1; read by: GFP; endpoint: EC50

Rows are shuffled and stem from different studies.

| structure | cells | setting | mutations | strain | value |
|---|---|---|---|---|---|
| C[C@]12CCCCC[C@]1(O)Cn1cc(C(=O)NCc3ccc(F)cc3F)c(=O)c(O)c1C2=O | MT-4 | 100% human serum |  | NL4-3 | 1.114 µM |
| CC(C)CN(C[C@@H](O)[C@H](Cc1ccccc1)NC(=O)O[C@H]1CO[C@H]2OCC[C@H]21)S(=O)(=O)c1ccc(N)c(NCC2CCCCC2)c1 | MT-4 |  |  | IIIB WT | 0.000794 µM |
| COCC[C@@]1(C)C(=O)c2c(O)c(=O)c(C(=O)NCc3ccc(F)cc3F)cn2C[C@@H]1OC | MT-4 | 0% human serum |  | NL4-3 | 0.0026 µM |
| Cc1cn(CC(=O)N[C@@H](Cc2ccccc2)C(=O)N(C)c2ccc(Cl)cc2)c(=O)[nH]c1=O | TZM-gfp |  |  | NL4-3 | 1.7 µM |
| COc1cc2c(cc1Cc1cccc(Cl)c1F)c(=O)c(C(=O)O)cn2[C@H](CO)C(C)C | CEM-GXR |  |  | NL4-3 | 0.0009 µM |
| Cc1cc[nH]c(=O)c1Cc1ccc2c(c1)NC(=O)N[C@]2(C#CC1CC1)C(F)(F)F | PBMC | pseudotyped |  |  | 0.132 µM |
| CC(=O)N1C2CCC(C2)N2C(=O)c3c(O)c(=O)c(C(=O)NCc4ccc(F)cc4F)cn3CC12 | MT-4 | 0% human serum |  | NL4-3 | 0.002 µM |
| NS(=O)(=O)c1ccc(Cc2cc3c(cc2F)[C@@](C#CC2CC2)(C(F)(F)F)NC(=O)N3)cc1 | PBM |  |  |  | 0.132 µM |
| CCN1CCC[C@@H]1CNc1cc(S(=O)(=O)N(CC(C)C)C[C@@H](O)[C@H](Cc2ccccc2)NC(=O)O[C@H]2CO[C@H]3OCC[C@H]32)ccc1N | MT-4 |  |  | IIIB WT | 0.0661 µM |
| COCC[C@]1(C)C(=O)c2c(O)c(=O)c(C(=O)NCc3ccc(F)cc3F)cn2C[C@@H]1OC | MT-4 | 100% human serum |  | NL4-3 | 0.032 µM |
| CC(=O)N1CCN(CCNc2cc(S(=O)(=O)N(CC(C)C)C[C@@H](O)[C@H](Cc3ccccc3)NC(=O)O[C@H]3CO[C@H]4OCC[C@H]43)ccc2N)CC1 | MT-4 |  |  | IIIB WT | 1 µM |
| CC#C[C@]1(O)CC[C@H]2[C@@H]3CCC4=CC(=O)CCC4=C3[C@@H](c3ccc(N(C)C)cc3)C[C@@]21C | CEMx174 + CEM |  |  | NL4-3-EGFP | ~0.5 µM |
| CC(C)CN(C[C@@H](O)[C@H](Cc1ccccc1)NC(=O)O[C@H]1CO[C@H]2OCC[C@H]21)S(=O)(=O)c1ccc(N)c(NCc2ccco2)c1 | MT-4 |  |  | IIIB WT | 0.00166 µM |
| C[C@@]12CCCCC[C@]1(O)Cn1cc(C(=O)NCc3ccc(F)cc3F)c(=O)c(O)c1C2=O | MT-4 | 0% human serum |  | NL4-3 | 0.0019 µM |
| COCCNc1cc(S(=O)(=O)N(CC(C)C)C[C@@H](O)[C@H](Cc2ccccc2)NC(=O)O[C@H]2CO[C@H]3OCC[C@H]32)ccc1N | MT-4 |  |  | IIIB WT | 0.0055 µM |
| CN(C(=O)[C@H](Cc1ccccc1)NC(=O)CNC(=O)c1ccccc1)c1ccc(Cl)cc1 | TZM-gfp |  |  | NL4-3 | 0.88 µM |
| O=C(NCc1c(F)cc(F)cc1F)c1cn2c(c(O)c1=O)C(=O)N1[C@H]3CC[C@H](C3)O[C@@H]1C2 | CEM-GXR |  | T97A E138K G140S Q148H | NL4-3 | 0.0126 µM |
| CC(C)CN(C[C@@H](O)[C@H](Cc1ccccc1)NC(=O)O[C@H]1CO[C@H]2OCC[C@H]21)S(=O)(=O)c1ccc(N)c(NCc2ccc3c(c2)OCO3)c1 | MT-4 |  |  | IIIB WT | 0.00676 µM |

2 of the rows above, restated:

structure | cells | setting | mutations | strain | value
CC#C[C@]1(O)CC[C@H]2[C@@H]3CCC4=CC(=O)CCC4=C3[C@@H](c3ccc(N(C)C)cc3)C[C@@]21C | CEMx174 + CEM |  |  | NL4-3-EGFP | ~0.5 µM
NS(=O)(=O)c1ccc(Cc2cc3c(cc2F)[C@@](C#CC2CC2)(C(F)(F)F)NC(=O)N3)cc1 | PBM |  |  |  | 0.132 µM

ECn: concentration that inhibits the pathogen or its effect by n%. Blank or dashed fields: not listed here.